Compound potency records, mixed from different reports. Data source: NIAID ChemDB in PubChem.

All rows: whole-cell or culture tests; agent: HIV-1; cells: H9; read-out: EC50

ECn is the concentration giving n% inhibition of infection, replication or growth. Neighbouring rows are from separate reports. An empty or dashed field is not shown.

smiles | strain or isolate | changes | method | result
CC(C)(C)OC(=O)N[C@@H](Cc1ccccc1)[C@@H](O)C[C@@H](Cc1ccc(OCCO)cc1)C(=O)N[C@H]1c2ccccc2C[C@H]1O | IIIB | - | p24 | <0.05 µM
O[C@H]1OC[C@H](Cc2ccc3c(c2)OCO3)[C@H]1Cc1ccc2c(c1)OCO2 | IIIB | - | p24 | <12.7 µM
O=C(O[C@@H]1Cc2c(O)cc(O)cc2O[C@@H]1c1cc(O)c(O)c2c(=O)c(O)cc([C@H]3Oc4cc(O)cc(O)c4C[C@H]3O)cc12)c1cc(O)c(O)c(O)c1 | IIIB | - | p24 | >48 µg/mL
Nc1nc2c(ncn2[C@H]2C=C[C@@H](CO)C2)c(=O)o1 | IIIB | - | RT activity | 320 µg/mL
Cc1ccc(C(=O)OC[C@H]2O[C@@H](n3cc(-c4cccn4C)c(N)nc3=O)C[C@@H]2OC(=O)c2ccc(C)cc2)cc1 | IIIB | - | RT activity | >10 µg/mL
Nc1nc2c(ncn2[C@@H]2C[C@H](COP(=O)(O)O)[C@@H](O)[C@H]2O)c(=O)o1 | IIIB | - | RT activity | >500 µg/mL
CCCCCCCCCCCCCCCCCCCCCCOC[C@H](CO[C@]1(C(=O)O)C[C@H](OS(=O)(=O)O)[C@@H](NC(C)=O)[C@H]([C@H](OS(=O)(=O)O)[C@@H](COS(=O)(=O)O)OS(=O)(=O)O)O1)OCCCCCCCCCCCCCCCCCCCCCC | IIIB | - | syncytia | 1 µM
Oc1cc(O)c2c(c1)O[C@H](c1cc(O)c(O)c(O)c1)[C@H](O)C2 | IIIB | - | p24 | >1.8 µg/mL
CC1(C)S[C@H]([C@H](NC(=O)Cc2ccccc2)C(=O)NCc2ccccc2)N[C@H]1C(=O)NCCNC(=O)[C@@H]1N[C@@H]([C@H](NC(=O)Cc2ccccc2)C(=O)NCc2ccccc2)SC1(C)C | IIIB | - | p24 | 0.025 µM
Nc1nc2c(ncn2[C@@H]2O[C@H](CO)[C@@H](O)[C@H]2O)c(=O)o1 | IIIB | - | RT activity | >500 µg/mL
COc1cc(C[C@H]2C(=O)OC[C@@H]2Cc2ccc(OC)c(OC)c2)ccc1O | IIIB | - | syncytia | <0.13 µM
CC1(C)Oc2ccc3ccc(=O)oc3c2[C@@H](OC(=O)C23CCC(C)(C(=O)O2)C3(C)C)[C@H]1OC(=O)C12CCC(C)(C(=O)O1)C2(C)C | - | - | - | 0.049 µM
CC(C)(C)NC(=O)[C@@H]1CN(Cc2cc(Br)cs2)CCN1C[C@@H](O)C[C@@H](Cc1ccncc1)C(=O)N[C@H]1c2ccccc2C[C@H]1O | IIIB | - | p24 | <0.012 µM
O=c1[nH]cnc2c1ncn2[C@H]1CC[C@@H](CO)O1 | IIIB | - | RT activity | 1.6 µg/mL
Nc1nc(=O)n([C@@H]2C[C@H](O)[C@@H](CO)O2)cc1-c1nccs1 | IIIB | - | RT activity | >10 µg/mL
CCc1cc(NCc2nc3c(C)ccc(C)c3o2)c(=O)[nH]c1C | IIIB | - | p24 | <0.15 µM
CCC(C1=C(O)C2CCCC2OC1=O)c1cccc(NS(=O)(=O)c2ccc(C#N)cn2)c1 | IIIB | - | p24 | 2.9 µM
CCOC(=O)P(=O)(OCOC(C)=O)OCOC(C)=O | IIIB | - | cytopathic effect / MTT | >150 µM
O=C(O[C@@H]1Cc2c(O)cc(O)cc2O[C@@H]1c1cc(O)c(=O)c2c(O)c(O)cc([C@H]3Oc4cc(O)cc(O)c4C[C@H]3OC(=O)c3cc(O)c(O)c(O)c3)c2c1)c1cc(O)c(O)c(O)c1 | IIIB | - | p24 | >48 µg/mL
COc1ccc2c(c1)N(C(=O)OC(C)C)[C@@H](CSC)C(=S)N2 | MN | - | p24 | 0.007 µg/mL
CC(C)=CCOc1c2occc2cc2ccc(=O)oc12 | IIIB | - | p24 | 11.1 µM
NC(=O)P(=O)(O)OC[C@H]1O[C@@H](n2cnc3c(=O)[nH]c(N)nc32)[C@H](O)[C@@H]1O | - | - | p24 | 5.5 µM
Nc1nc(=O)n([C@@H]2C[C@H](O)[C@@H](CO)O2)cc1-c1cccnc1 | IIIB | - | RT activity | >10 µg/mL
Nc1nc2c(ncn2COC(CO)CO)c(=O)[nH]1 | IIIB | - | ELISA | >50 µM
CN=C1CN=C(c2ccc[nH]2)c2cc(Cl)ccc2N1 | IIIB | - | antigen | 2 µM
O=c1[nH]cnc2c1ncn2[C@H]1CC[C@@H](CO)O1 | LAI | - | p24 | 0.465 µM
CCC(c1cccc(NS(=O)(=O)c2ccc(C#N)cn2)c1)c1c(O)c2c(oc1=O)CCCCCC2 | IIIB | - | p24 | 2.6 µM
CC(=O)N[C@H]1[C@H]([C@H](OS(=O)(=O)O)[C@@H](COS(=O)(=O)O)OS(=O)(=O)O)O[C@@](OCCCCCCCCCCCCCCCC(=O)O)(C(=O)O)C[C@@H]1OS(=O)(=O)O | IIIB | - | p24 | 139 µM
Nc1ccn([C@H]2CC[C@@H](CO)O2)c(=O)n1 | LAI | - | p24 | 0.038 µM
CC(/C=C/C(=O)NO)=C\[C@@H](C)C(=O)c1ccc(N(C)C)cc1 | RF | - | p24 | 0.18 µM
CCC(c1cccc(NS(=O)(=O)c2ccc(C#N)cn2)c1)c1c(O)c2c(oc1=O)CCCCC2 | IIIB | - | p24 | >3 µM
Cc1cn([C@H]2C[C@H](N=[N+]=[N-])[C@@H](CO)O2)c(=O)[nH]c1=O | - | - | p24 / ELISA | <25 µg/mL
CC1NCCc2cc(O)c(O)cc21 | - | - | MTT | >2.5 µg/mL
C/C=C(/C)C(=O)OC1c2cc3c(c(OC)c2-c2c(cc4c(c2OC)OCO4)C[C@H](C)[C@H]1C)OCO3 | IIIB | - | p24 | >34 µg/mL
CC(C)=CCC/C(C)=C/CN1CCc2cc(O)c(O)cc2[C@H]1C | - | - | MTT | >2.5 µg/mL
O=c1ccc2cc3ccoc3cc2o1 | IIIB | - | p24 | 0.1 µg/mL
Cc1cn([C@H]2C[C@H](N=[N+]=[N-])[C@@H](CO)O2)c(=O)[nH]c1=O | IIIB | - | p24 | 0.002 µg/mL
CCC(C1=C(O)C2CCCCCC2OC1=O)c1cccc(NS(=O)(=O)c2ccc(C#N)cn2)c1 | IIIB | - | p24 | 2 µM
CC(=O)OC[C@H]1O[C@@H](OC(C)(C)[C@H]2Cc3cc4ccc(=O)oc4cc3O2)[C@H](OC(C)=O)[C@@H](OC(C)=O)[C@@H]1OC(C)=O | IIIB | - | p24 | >86.8 µM
O=C(O[C@H]1Cc2c(O)cc3c(c2O[C@H]1c1cc(O)c(O)c(O)c1)[C@H]1c2c(O)cc(O)cc2O[C@@](c2cc(O)c(O)c(O)c2)(O3)[C@@H]1O)c1cc(O)c(O)c(O)c1 | IIIB | - | p24 | >40 µg/mL
Nc1nc(=O)n([C@H]2C[C@H](O)[C@@H](CO)O2)cc1-c1ccsc1 | IIIB | - | RT activity | >10 µg/mL
O=c1ccc2cc(O)c(O)cc2o1 | IIIB | - | p24 / ELISA | 2.51 µg/mL
CC(C)(C)OC(=O)N[C@@H](Cc1ccccc1)[C@@H](O)C[C@@H](Cc1ccc(OCCCN2CCOCC2)cc1)C(=O)N[C@H]1c2ccccc2C[C@H]1O | IIIB | - | antigen | <0.2 µM
CC(C)(C)NC(=O)[C@@H]1CN(Cc2cc3sccc3s2)CCN1C[C@@H](O)C[C@@H](Cc1ccncc1)C(=O)N[C@H]1c2ccccc2C[C@H]1O | IIIB | - | p24 | <0.006 µM
C=C(C)OC(=O)N1c2cc(Cl)ccc2NC(=S)C1(C)C | B8 (RT K101I K103N Y181C G190A) | RT-K101I K103N Y181C G190A | p24 | >10 µg/mL
CCCC1(CCc2ccccc2)CC(O)=C(C(c2cccc(NS(=O)(=O)c3cn(C)cn3)c2)C(C)(C)C)C(=O)O1 | IIIB | - | - | 0.5 µM
CC1(C)Oc2ccc3ccc(=O)oc3c2[C@H](OC(=O)c2cccc(Cl)c2)[C@H]1OC1CCCCO1 | IIIB | - | p24 | >41 µM
Nc1nc(N)c2ncn(CCOCP(=O)(O)O)c2n1 | IIIB | - | antigen | <0.2 µM
Cc1cn([C@H]2C[C@H](N=[N+]=[N-])[C@@H](CO)O2)c(=O)[nH]c1=O | IIIB | - | p24 | <0.08 µg/mL
COC(=O)P(=O)(OCOC(=O)C(C)C)OCOC(=O)C(C)C | IIIB | - | cytopathic effect / MTT | >150 µM
COc1cc(C(=O)O[C@@H]2Cc3c(O)cc(O)cc3O[C@@H]2c2ccc(O)c(O)c2)cc(O)c1O | IIIB | - | p24 | >50 µg/mL
COc1cc([C@H]2OC[C@H]3[C@@H]2CO[C@@H]3c2ccc3c(c2)OCO3)cc(OC)c1OC | IIIB | - | RT activity | <10.6 µM
CC1(C)O[C@@H]1COc1c2occc2cc2ccc(=O)oc12 | IIIB | - | p24 | 7.29 µg/mL
CC(C)(C)NC(=O)[C@@H]1CN(Cc2c(F)cccc2F)CCN1C[C@@H](O)C[C@@H](Cc1ccncc1)C(=O)N[C@H]1c2ccccc2C[C@H]1O | IIIB | - | p24 | <0.025 µM
Cc1cn([C@H]2C[C@H](F)[C@@H](CO)O2)c(=O)[nH]c1=O | IIIB | - | ELISA | 0.016 µM
Nc1nc(=O)n([C@@H]2C[C@H](O)[C@@H](CO)O2)cc1-c1ccccc1 | IIIB | - | RT activity | >10 µg/mL
CC(C)(C)OC(=O)N[C@@H](Cc1ccc(O)cc1)[C@@H](O)C[C@@H](Cc1ccc(O)cc1)C(=O)N[C@H]1c2ccccc2C[C@H]1O | IIIB | - | antigen | <0.78 µM
CC(C)(C)NC(=O)[C@@H]1CN(Cc2cc3ccsc3s2)CCN1C[C@@H](O)C[C@@H](Cc1ccncc1)C(=O)N[C@H]1c2ccccc2C[C@H]1O | IIIB | - | p24 | <0.006 µM
CCc1cc(NCc2nc3ccccc3o2)c(=O)[nH]c1C | IIIB | - | p24 | <0.9 µM
Nc1nc(=O)n([C@H]2C[C@H](O)[C@@H](CO)O2)cc1C1CC1 | IIIB | - | RT activity | >10 µg/mL
Nc1nc2c(ncn2[C@H]2C=C[C@@H](CO)O2)c(=O)o1 | IIIB | - | RT activity | 155 µg/mL
CCCC1(CCc2ccccc2)CC(O)=C(C(c2cccc(NS(=O)(=O)c3cn(C)cn3)c2)C2CC2)C(=O)O1 | IIIB | - | - | <1 µM
CC(C)=CCC/C(C)=C/CC[C@@]1(C)C=Cc2c(cc(C)c(C(=O)O)c2O)O1 | IIIB | - | p24 / ELISA | 0.00567 µg/mL
CC(C)(C)OC(=O)N[C@@H](Cc1ccccc1)[C@@H](O)C[C@@H](Cc1ccc(OCCN2CCS(=O)(=O)CC2)cc1)C(=O)N[C@H]1c2ccccc2C[C@H]1O | IIIB | - | p24 | <0.1 µM
C[C@@H]1[C@H](O)[C@@H](C)/C=C/C=C/CC/C=C/C=C/C=C/C=C/C(O[C@H]2O[C@H](C)[C@@H](O)[C@H](N)[C@@H]2O)CC2O[C@](O)(CC(O)C(O)CCC(O)CC(O)CC(O)CC(=O)O[C@H]1C)CC(O)C2C(=O)O | - | - | p24 / ELISA | 4 µg/mL
COc1c2ccoc2cc2oc(=O)ccc12 | IIIB | - | p24 | 30.1 µM
CCCCCCCCCCCCCCCCCCCCCCCCCCOC[C@H](CO[C@]1(C(=O)O)C[C@H](OS(=O)(=O)O)[C@@H](NC(C)=O)[C@H]([C@H](OS(=O)(=O)O)[C@@H](COS(=O)(=O)O)OS(=O)(=O)O)O1)OCCCCCCCCCCCCCCCCCCCCCCCCCC | IIIB | - | p24 | >100 µM
CC(C)(C)OC(=O)N[C@@H](Cc1ccc(O)cc1)[C@@H](O)C[C@@H](Cc1ccccc1)C(=O)N[C@H]1c2ccccc2C[C@H]1O | IIIB | - | antigen | <0.05 µM
CCCC1(CCC)CC(O)=C(Cc2cccc(NS(=O)(=O)c3cn(C)cn3)c2)C(=O)O1 | IIIB | - | - | >3 µM
NC(=O)P(=O)(O)OC[C@H]1O[C@@H](n2ccc(=O)[nH]c2=O)[C@H](O)[C@@H]1O | - | - | p24 | 5.5 µM
CCCCCCCCCCCCCCCCCCOC[C@H](CO[C@]1(C(=O)O)C[C@H](OS(=O)(=O)O)[C@@H](NC(C)=O)[C@H]([C@H](OS(=O)(=O)O)[C@@H](COS(=O)(=O)O)OS(=O)(=O)O)O1)OC | IIIB | - | p24 | 19 µM
CC(=O)O[C@@H]1[C@H](OC(=O)CC(C)C)c2c(ccc3ccc(=O)oc23)OC1(C)C | IIIB | - | p24 | 1.3 µM

A second listing of 4 rows from above:

Nc1nc2c(ncn2[C@H]2C=C[C@@H](CO)O2)c(=O)o1 ; strain or isolate: IIIB ; method: RT activity ; result: 155 µg/mL
Cc1cn([C@H]2C[C@H](N=[N+]=[N-])[C@@H](CO)O2)c(=O)[nH]c1=O ; method: p24 / ELISA ; result: <25 µg/mL
CCC(c1cccc(NS(=O)(=O)c2ccc(C#N)cn2)c1)c1c(O)c2c(oc1=O)CCCCCC2 ; strain or isolate: IIIB ; method: p24 ; result: 2.6 µM
COc1ccc2c(c1)N(C(=O)OC(C)C)[C@@H](CSC)C(=S)N2 ; strain or isolate: MN ; method: p24 ; result: 0.007 µg/mL